Results of unrelated studies side by side (data: NIAID ChemDB).

All rows: growth or infection tests; organism: Hepatitis B virus

a–b is a range or a potency band.

smiles,tested at,strain,read by,measure,cell line,result
N#CCc1c(N)nc(N)nc1OCCOCP(=O)(O)O,-,-,PCR,EC50,HEPAD79,>300 µM
O=C1C[C@@H](c2ccc(O)cc2)Oc2cc(OC3O[C@H](CO)[C@@H](O)[C@H](O)[C@H]3O)cc(O)c21,-,-,ELISA / antigen,EC50,HepG2.2.15,371 µM
Nc1nc(N)c2ncn([C@H]3CO[C@@H](CO)O3)c2n1,-,M550V,-,EC50,-,36 µM
Nc1ccn([C@H]2O[C@@H](CO)C=C2F)c(=O)n1,-,RTM204,-,EC90,HepAD38,0.74 µM
CCOC(=O)/C=C/c1ccc(O)c(O)c1,-,-,ELISA / antigen,EC50,HepG2.2.15,<52.79 µM
Nc1nc(OCCOCP(=O)(O)O)cc(=O)[nH]1,-,-,PCR,EC50,HepAD38,1.3 µM
CCOC(=O)/C=C/c1ccc(O)cc1,-,-,PCR,EC50,HepG2.2.15,1050 µM
NC(=O)c1nnn([C@@H]2C[C@H](CCP(=O)(O)O)C[C@H]2O)c1N,-,-,-,EC90,AD38,>10 µM
Nc1nc2c(ncn2[C@H]2CC[C@@H](CO)O2)c(=O)[nH]1,-,-,-,EC90,HepG2.2.15,9 µM
CC[C@H]1OC(O[C@@H]2[C@@H]3[C@](C)(CC[C@H]2C(C)C)[C@H](O)CC[C@]3(C)O)[C@H](O)[C@@H](O)[C@@H]1O,-,-,ELISA / antigen,EC50,HepG2.2.15,9 µM
Cc1cn([C@H]2O[C@@H](CO)[C@H](O)[C@H]2F)c(=O)[nH]c1=O,0.2 µM,WILD TYPE,-,inhibition,HepG2,94%
COC(=O)c1cn([C@@H]2C[C@H](CCP(=O)(O)O)C[C@H]2O)nn1,-,-,-,EC90,AD38,>10 µM
Nc1ncnc2c1ncn2CCOCP(=O)(O)O,-,-,-,MIC,-,0.1 µg/mL
Nc1ncnc2c1ncn2CCOCP(=O)(O)O,-,L526M,-,EC50,-,2 µM
C[C@@H](COc1cc(N)nc(N)n1)OCP(=O)(O)O,-,-,PCR,EC50,HEPAD79,>300 µM
Nc1ncnc2c1ncn2CCOCP(=O)(O)O,0.05 µM,WILD TYPE,-,inhibition,HepG2,49%
CCOC(=O)CC1COP(=O)(CO[C@H](C)Cn2cnc3c(N)ncnc32)OC1,1 µM,Genotype D,PCR,inhibition,HepaRG,≤30%
Nc1nc(N)c2ncn(C[C@@H](CO)OCP(=O)(O)O)c2n1,-,-,hybridisation,EC90,HepG2 2.2.15,1.3 µM
COC(=O)CCC1COP(=O)(CO[C@H](C)Cn2cnc3c(N)ncnc32)OC1,1 µM,Genotype D,PCR,inhibition,HepaRG,50–80%
O=c1[nH]c(=O)n([C@@H]2O[C@H](CO)[C@@H](O)[C@@H]2F)cc1I,-,-,-,EC90,HepG2.2.15,24 µM
Nc1ccn([C@@H]2CS[C@H](CO)O2)c(=O)n1,-,-,-,EC90,AD38,0.24 µM
CO[C@H]1O[C@@H](n2ccc(=O)[nH]c2=O)C[C@@H]1N=[N+]=[N-],-,-,-,EC90,HepG2.2.15,>100 µM
Nc1nc(N)c(C=O)c(OCCOCP(=O)(O)O)n1,-,-,PCR,EC50,HepAD38,21 µM
Nc1nc(=O)n([C@H]2CC[C@@H](CO)O2)cc1F,-,-,-,EC90,HepG2.2.15,57 µM
O=c1ccc2cc(O)c(O)cc2o1,-,-,PCR,EC50,HepG2.2.15,33.76 µM
Nc1nc(N)c2ncn(CCOCP(=O)(O)O)c2n1,-,-,-,MIC,-,0.02 µg/mL
Nc1ncnc2c1ncn2CCOCP(=O)(O)O,-,RTM204,-,EC90,HEPAD79,~10 µM
Nc1ccn([C@@H]2CS[C@H](CO)O2)c(=O)n1,-,Mutation M550I,-,EC50,HepG2,3.8 µM
O=C(O)c1ccccc1O,-,-,ELISA / antigen,EC50,HepG2.2.15,3620 µM
Nc1cc(OCCOCP(=O)(O)O)ncn1,-,-,PCR,EC50,HEPAD79,80 µM
Nc1nc(=O)n([C@@H]2CS[C@H](CO)O2)cc1F,-,RTM204,-,EC90,HepAD38,1.16 µM
Cc1c(N)nc(N)nc1OCCOCP(=O)(O)O,-,-,PCR,EC50,HEPAD79,2 µM
COc1ccc(Sc2nc(N)nc3c2ncn3CCOCP(=O)(OCC(F)(F)F)OCC(F)(F)F)cc1,-,Mutations L528M M552V,-,EC50,Huh7,2 µM
Nc1ncnc2c1ncn2[C@@H]1O[C@H](CO)[C@@H](O)[C@@H]1O,-,-,-,EC90,HepG2.2.15,23 µM
COC(=O)c1cn([C@@H]2C[C@H](CO)C[C@H]2O)nn1,-,-,-,EC90,AD38,>10 µM
CCC(CCC(C)C1CCC2C3C[C@@H](O)[C@@]4(O)C[C@@H](O)CCC4(C)C3CCC12C)C(C)C,6.25 µg/mL,-,antigen,inhibition,HepG2 2.2.15,11.4%
Nc1nc(N)c2ncn(CCOCP(=O)(O)O)c2n1,-,-,PCR,EC50,HEPAD79,0.5 µM
CCc1cn([C@@H]2O[C@H](CO)[C@@H](O)[C@@H]2F)c(=O)[nH]c1=O,-,-,-,EC90,HepG2.2.15,87 µM
Nc1cc(OCCOCP(=O)(O)O)nc(N)n1,-,-,PCR,EC50,HEPAD79,0.25 µM
CCOC(=O)CC1COP(=O)(CO[C@H](C)Cn2cnc3c(NC(=O)c4ccccc4)ncnc32)OC1,1 µM,Genotype D,PCR,inhibition,HepaRG,≤30%
Nc1nc2c(ncn2COCCO)c(=O)[nH]1,-,-,-,EC90,AD38,>100 µM
Nc1nc(=O)n([C@@H]2O[C@H](CO)[C@@H](O)[C@@H]2F)cc1I,-,-,-,EC90,HepG2.2.15,34 µM
CCOC(=O)CC1COP(=O)(CO[C@H](C)Cn2cnc3c(NC(=O)C(C)C)ncnc32)OC1,1 µM,Genotype D,PCR,inhibition,HepaRG,≤30%

A second listing of 5 rows from above:

{"smiles": "Nc1nc2c(ncn2COCCO)c(=O)[nH]1", "measure": "EC90", "cell line": "AD38", "result": ">100 µM"}
{"smiles": "O=C(O)c1ccccc1O", "read by": "ELISA / antigen", "measure": "EC50", "cell line": "HepG2.2.15", "result": "3620 µM"}
{"smiles": "Nc1ncnc2c1ncn2[C@@H]1O[C@H](CO)[C@@H](O)[C@@H]1O", "measure": "EC90", "cell line": "HepG2.2.15", "result": "23 µM"}
{"smiles": "CCOC(=O)/C=C/c1ccc(O)cc1", "read by": "PCR", "measure": "EC50", "cell line": "HepG2.2.15", "result": "1050 µM"}
{"smiles": "Nc1nc(=O)n([C@@H]2CS[C@H](CO)O2)cc1F", "strain": "RTM204", "measure": "EC90", "cell line": "HepAD38", "result": "1.16 µM"}

Inhibition is in % at the dose shown (toxicity tests: loss of growth or viability). An empty or dashed field is not shown. Neighbouring rows are from separate reports. ECn: concentration that inhibits the pathogen or its effect by n%.